Here are results for 1 molecule from paper PMC13635753, “Mechanism of NanR transcriptional activation of sialic acid metabolism in Streptococcus pneumoniae” (Nucleic Acids Research, 2025).

By UniProt entry, the sequences of proteins in these tests, tags left out. Residues count along the entry.
UniProt A0A4M6CQT5, 1-283: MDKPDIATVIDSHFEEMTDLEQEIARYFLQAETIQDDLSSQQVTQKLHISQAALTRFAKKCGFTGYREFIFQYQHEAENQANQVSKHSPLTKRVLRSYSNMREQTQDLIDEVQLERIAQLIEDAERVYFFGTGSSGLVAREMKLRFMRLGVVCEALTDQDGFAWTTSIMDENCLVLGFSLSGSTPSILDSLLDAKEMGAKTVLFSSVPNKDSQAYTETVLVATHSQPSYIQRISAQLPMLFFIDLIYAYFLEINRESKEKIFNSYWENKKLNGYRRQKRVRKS

The assay concerns the target SpNanR (Streptococcus pneumoniae, UniProt A0A4M6CQT5). The assay is described as follows: differential scanning fluorimetry (SYPRO Orange). The settings on record: 1 mM ligand, 20 μM protein. On the technique in general: In DSF a fluorescence change marks the thermal transition of the protein.

Take `CC(=O)N[C@@H]1C(O)O[C@H](COP(=O)(O)O)[C@@H](O)[C@@H]1O` (stereo partly shown): the dTm entry was “+4.1 °C”.
